Measured values: PMC3172200 (PLoS Biology, 2011)

Molecular target: soluble CD28 comprising its extracellular domain fused to IgG1-Fc dimer (CD28-Fc) (human, UniProt P10747 19-152)
Assay: SPR

CTNKKKVTAQELDC [pSEB (TNKKKVTAQELD), SEB 150-161]
binding result: binds
